Measurements as given in paper PMC5231390, “Two-Component Signaling System VgrRS Directly Senses Extracytoplasmic and Intracellular Iron to Control Bacterial Adaptation under Iron Depleted Stress” (PLoS Pathogens, 2016).
The exact form of at least one protein or probe is not confirmed.

Columns and labels:
[1] = molecular target: VgrR-P (phosphorylated by truncated MBP-VgrS + ATP) (Xanthomonas campestris pv. campestris) (UniProt B0RPP4); assay: MST; conditions: 10 mM MgCl2, VgrR phosphorylated by truncated VgrS + 100 uM ATP; MST: 50 mM Tris-HCl pH 7.4, 150 mM NaCl, 10 mM MgCl2, 0.05% Tween-20; recombinant protein; protein details: C-terminal His6 (pET30a); label: 5'-FAM on one strand
[2] = molecular target: VgrR (ColR), unphosphorylated (Xanthomonas campestris pv. campestris) (UniProt B0RPP4); assay: EMSA; conditions: EMSA: 10 mM Tris-HCl pH 7.5, 50 mM KCl, 1 mM DTT, poly(dI-dC), room temp, recombinant protein, protein details: C-terminal His6 (pET30a), label: 32P, probe letters rebuilt from the primers and the genome
[3] = molecular target: VgrR-P (phosphorylated by truncated MBP-VgrS + ATP) (Xanthomonas campestris pv. campestris) (UniProt B0RPP4); assay: EMSA; conditions: ATP + MBP-VgrS, stronger than unphosphorylated; EMSA: 10 mM Tris-HCl pH 7.5, 50 mM KCl, 1 mM DTT, poly(dI-dC), room temp; recombinant protein; protein details: C-terminal His6 (pET30a); label: 32P; probe letters rebuilt from the primers and the genome

GCCCGATTTCACGTCTTTCTTCTTTTTCATTAACGGGACTTTAATTCCTG (double strand) [PtdvA 50 bp, 5'-FAM (MST)]
Kd [1]: 12.4 nM

GTACCATGGCTCTCTCTCCAAGTGATCTTGGGTACTGCCAAGGGTTTGTTGGCCCGGCGGGGGATCCGAAGAAGCGGATCCAAAACGTCAGGGTGAACCGATGGTATATGCGTTGCGTCAGGAATTAAAGTCCCGTTAATGAAAAAGAAGAAAGACGTGAAATCGGGCGACGAACGGTCGGCCACAACGTAAAACGCCTGCAGTGC (double strand) [PtdvA 188 bp (XC1241 promoter PCR product)]
binding result ([2]; unlabeled probe competes): binds

GTACCATGGCTCTCTCTCCAAGTGATCTTGGGTACTGCCAAGGGTTTGTTGGCCCGGCGGGGGATCCGAAGAAGCGGATCCAAAACGTCAGGGTGAACCGATGGTATATGCGTTGCGTCAGGAATTAAAGTCCCGTTAATGAAAAAGAAGAAAGACGTGAAATCGGGCGACGAACGGTCGGCCACAACGTAAAACGCCTGCAGTGC (double strand) [PtdvA EMSA probe (Fig 6D, 8B, 8D)]
binding result ([2]; no phosphorylation, similar with MBP-VgrS H186A): binds
binding result [3]: binds
